PubChem BioAssay AID504761 | Drosophila RNAi Screening Center, 2011
Screen: 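Insect host genes that dengue virus relies on to spread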 (primary screen). Cell system: D.Mel-2 cells from Drosophila. Knock-down reagent: long dsRNA against Drosophila genes. Conditions: infection with dengue virus type 2; dose and infection time not stated. Detection: 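Cells stained for dengue envelope protein and imaged; percent of infected cells per well on duplicate plates, ranked by infection, with stained nuclei counted for cell number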. Reading the numbers: infection score: higher = more virus-infected cells; cell count: higher = more cells in the well. Rule for the call: 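Low infection ranks in the two replicates (chance level up to 0.065) followed by a retest with a 1.5-fold or larger significant decrease, p below 0.05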. Meaning of the calls: active = confirmed: knock-down lowers infection; inactive = not picked or not confirmed.
The deposit covers about 22,000 reagents; below is an unselected part of those with a known target gene and a result. In the full data, 116 (0.52%) are marked active. 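Calls depend on retest data that are not deposited; infection was ranked per plate without normalising between plates; the unit of the infection score is not given.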 Raw values are not corrected between plates. Unmarked entries are inactive. The record does not give: the amount of reagent, the time to read-out.

| target gene | DRSC id | infection score, replicate 1 | infection score, replicate 2 | cell count, replicate 1 | cell count, replicate 2 |
| --- | --- | --- | --- | --- | --- |
| Cpr72Ec (GeneID 39816) | DRSC10449 | 4.62 | 12.5 | 7083 | 6475 |
| pbl (GeneID 38879) | DRSC11381 | 7.2 | 2.77 | 5082 | 5562 |
| pbl (GeneID 38879) | DRSC26301 | 6.64 | 14.4 | 4832 | 4825 |
| CG5357 (retired record) (GeneID 37712) | DRSC04497 | 6.29 | 5.79 | 6499 | 6510 |
| CG5357 (retired record) (GeneID 37712) | DRSC25149 | 2.08 | 1.52 | 6289 | 6046 |
| CG14205 (GeneID 32952) | DRSC19560 | 5.31 | 2.12 | 6192 | 6284 |
| CG14205 (GeneID 32952) | DRSC28253 | 15.5 | 8.7 | 5816 | 4710 |
| dsh (GeneID 32078) | DRSC19803 | 11.4 | 3.08 | 6005 | 6452 |
| CG9263 (GeneID 34770) | DRSC03176 | 3.22 | 5.44 | 6583 | 7004 |
| CG32071 (GeneID 39246) | DRSC22298 | 3.74 | 1.94 | 5831 | 6225 |
| CG32071 (GeneID 39246) | DRSC25705 | 7.83 | 5.18 | 6408 | 6235 |
| CG8584 (GeneID 35856) | DRSC07217 | 10.5 | 9.87 | 6543 | 3747 |
| eIF4A (GeneID 33835) | DRSC03526 | 4.63 | 3.57 | 2181 | 1343 |
| eIF4A (GeneID 33835) | DRSC26043 | 6.97 | 5.45 | 2353 | 2770 |
| tbc (GeneID 318059) | DRSC20540 | 2.24 | 0.96 | 4285 | 4779 |
| tbc (GeneID 318059) | DRSC23084 | 1.37 | 10.2 | 5708 | 6053 |
| tbc (GeneID 318059) | DRSC29058 | 7.81 | 4.89 | 5112 | 5784 |
| Cpsf160 (GeneID 44250) | DRSC05968 | 7.57 | 9.34 | 5750 | 6039 |
| CG34210 (GeneID 5740490) | DRSC04579 | 10.8 | 7.47 | 6251 | 6561 |
| Aptx (GeneID 42322) | DRSC15768 | 6.62 | 0.34 | 6347 | 6260 |
| Aptx (GeneID 42322) | DRSC28121 | 15.2 | – | 5152 | 398 |
| CG14277 (GeneID 34129) | DRSC02380 | 6.1 | 17.7 | 5496 | 5022 |
| Ugt49B1 (GeneID 37420) | DRSC04461 | 16.3 | 16.7 | 6503 | 6635 |
| Ugt49B1 (GeneID 37420) | DRSC26568 | 4.67 | 9.9 | 5910 | 5760 |
| mRpL18 (GeneID 36406) | DRSC06142 | 5.03 | 14.2 | 6240 | 6051 |
| eIF4H2 (GeneID 43645) | DRSC14582 | 3.83 | 9.94 | 5691 | 6190 |
| eIF4H2 (GeneID 43645) | DRSC27363 | 17.1 | 7.73 | 6354 | 6679 |
| CG14079 (GeneID 40086) | DRSC10083 | 3.1 | 6.41 | 6170 | 5759 |
| CG5348 (GeneID 36877) | DRSC06933 | 8.53 | 8.79 | 6156 | 6248 |

Entries listed so far whose gene name starts with E or e:
| target gene | DRSC id | infection score, replicate 1 | infection score, replicate 2 | cell count, replicate 1 | cell count, replicate 2 |
| --- | --- | --- | --- | --- | --- |
| eIF4A (GeneID 33835) | DRSC03526 | 4.63 | 3.57 | 2181 | 1343 |
| eIF4A (GeneID 33835) | DRSC26043 | 6.97 | 5.45 | 2353 | 2770 |
| eIF4H2 (GeneID 43645) | DRSC14582 | 3.83 | 9.94 | 5691 | 6190 |
| eIF4H2 (GeneID 43645) | DRSC27363 | 17.1 | 7.73 | 6354 | 6679 |

Continued:
| target gene | DRSC id | infection score, replicate 1 | infection score, replicate 2 | cell count, replicate 1 | cell count, replicate 2 |
| --- | --- | --- | --- | --- | --- |
| Sce (GeneID 43327) | DRSC23442 | 2.39 | 5.93 | 4266 | 6481 |
| Ser (GeneID 43275) | DRSC16856 | 5.68 | 10.5 | 6334 | 5508 |
| Ser (GeneID 43275) | DRSC25494 | 1.74 | 2.39 | 6498 | 6148 |
| UGP (GeneID 39065) | DRSC10411 | 29.8 | 15.9 | 5308 | 5755 |
| Clamp (GeneID 35445) | DRSC03718 | 20.3 | 13.7 | 6491 | 6344 |
| Clamp (GeneID 35445) | DRSC21682 | 0.86 | 5.14 | 6379 | 6377 |
| Clamp (GeneID 35445) | DRSC29935 | 4.25 | 10.6 | 6376 | 5989 |
| CG7691 (GeneID 42228) | DRSC16287 | 6.66 | 3.23 | 2971 | 6881 |
| Grx5 (GeneID 32410) | DRSC19593 | 7.43 | 3 | 6525 | 6541 |
| Itgbn (GeneID 35368) | DRSC03493 | 11.9 | 1.68 | 4606 | 6983 |
| Mgat2 (GeneID 43563) | DRSC16347 | 5.23 | 4.06 | 6367 | 6374 |
| Mgat2 (GeneID 43563) | DRSC29105 | 12.2 | 18.8 | 5976 | 5007 |
| TwdlZ (GeneID 318092) | DRSC19154 | 1.82 | 2.29 | 6718 | 6799 |
| dpr5 (GeneID 41381) | DRSC15766 | 6.48 | 4.77 | 6484 | 6437 |
| dpr5 (GeneID 41381) | DRSC25239 | 0.79 | 1.07 | 6554 | 6347 |
| m (GeneID 44835) | DRSC20181 | 3.06 | 0.72 | 6317 | 6127 |
| m (GeneID 44835) | DRSC29636 | 17.3 | 22.6 | 5695 | 6105 |
| CG11060 (GeneID 35641) | DRSC06029 | 2.64 | 24.4 | 6544 | 5381 |
| Sln (GeneID 36263) | DRSC07133 | 4.51 | 5.72 | 6556 | 6656 |
| Sln (GeneID 36263) | DRSC24171 | 17 | 7.98 | 5578 | 5953 |
| CG32812 (GeneID 31074) | DRSC18478 | 0.85 | 10.1 | 6562 | 6350 |
| dpr2 (GeneID 3346227) | DRSC02370 | 9.62 | 3.54 | 6289 | 6162 |
| dpr2 (GeneID 3346227) | DRSC02371 | 4.41 | 1.44 | 6082 | 6589 |
| Ser7 (GeneID 31917) | DRSC18201 | 11.1 | 33.7 | 7120 | 3084 |
| CG32437 (GeneID 40366) | DRSC11760 | 12.2 | 2.52 | 6316 | 5592 |
| CG32437 (GeneID 40366) | DRSC22020 | 3.44 | 14 | 7068 | 6731 |
| CG32437 (GeneID 40366) | DRSC27187 | 6.13 | 18.1 | 6883 | 6899 |
| Culd (GeneID 38946) | DRSC10262 | 4.41 | 11.4 | 1792 | 3074 |
| kuz (GeneID 34772) | DRSC03555 | 4.92 | 2.89 | 6733 | 7086 |
